Results reported in patent publication US20090221500.

Tested on: elongation factor-2 (EF-2)

Substance: wild type DT382 (sequence left out)
- IVTT Activity: 1
- Relative Activity (IVTT): 1
